Measured data: PubChem BioAssay AID624099 (ICCB-Longwood, 2012)
This is an unselected part of about 21,000 reagents tested. In the full data, 497 (2.4%) got an active call. 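Higher z means weaker E2 silencing; only reporter increases were scored, and knock-downs that hurt cell survival may mask genuine repressor factors.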 A number with no mark means an inactive call. No sequences are given here.

Screen: 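Knock-downs relieving repression by E2 of an HPV18 LCR luciferase reporter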 (primary screen)
System: human C33A cervical carcinoma cells (HPV-negative) stably expressing BPV1 E2 and an HPV18 LCR luciferase reporter
Knock-down reagent: siRNA pool against human genes, 40 nM
Duration: 72 h
Detection: 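HPV18 LCR reporter light per well, converted to plate-wise z-scores that exclude control wells, and averaged over triplicate plates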
Scale: mean z-score and z-score: higher = stronger reporter signal, weaker E2 silencing
Call rule: 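Mean z ≥ 2 together with z ≥ 2 in two or more of the three replicates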

target gene	mean z-score	z-score, replicate A	z-score, replicate B	z-score, replicate C
TRAT1 (T cell receptor associated transmembrane adaptor 1)	-2.36	-2.08	-2.44	-2.56
CYP2D7	-0.36	-0.52	-0.33	-0.24
TLR1 (toll like receptor 1)	1.13	1.03	1.22	1.13
TMEM156 (transmembrane protein 156)	-1	-2.04	-0.92	-0.03
ADAM2 (ADAM metallopeptidase domain 2)	-0.67	-0.5	-0.78	-0.73
ADAMTS19 (ADAM metallopeptidase with thrombospondin type 1 motif 19)	-0.55	-0.4	-0.48	-0.77
GFAP (glial fibrillary acidic protein)	0.07	0.02	0	0.18
RAC1P4 (Rac family small GTPase 1 pseudogene 4)	0.54	0.18	0.73	0.71
FBXW7 (F-box and WD repeat domain containing 7)	-0.13	0.17	-0.5	-0.06
GPR12 (G protein-coupled receptor 12)	0.11	0.11	0.37	-0.14
SLC44A4	-0.76	-0.59	-0.59	-1.09
NME1 (NME/NM23 nucleoside diphosphate kinase 1)	-0.81	-0.82	-0.98	-0.64
FAM153A (family with sequence similarity 153 member A)	-0.01	0.04	-0.06	0
TENT5D (terminal nucleotidyltransferase 5D)	-0.18	-0.42	-0.49	0.38
BEX5 (brain expressed X-linked 5)	-0.17	-0.23	-0.24	-0.04
TALDO1 (transaldolase 1)	-1.1	-1.32	-1.27	-0.72
CLDN9 (claudin 9)	-0.26	-0.28	-0.06	-0.43
NRIP3 (nuclear receptor interacting protein 3)	-0.2	-0.15	-0.21	-0.23
COPZ2 (coat protein complex I subunit zeta 2)	0.69	1.29	0.65	0.12
ZNF341 (zinc finger protein 341)	-0.3	-0.86	-0.22	0.19
TMEM218 (transmembrane protein 218)	-0.39	-0.16	-0.61	-0.41
HIC1 (HIC ZBTB transcriptional repressor 1)	0.02	-0.06	-0.06	0.18
ZNF503-AS2 (ZNF503 antisense RNA 2)	0.9	0.72	0.36	1.61
SRRT (serrate, RNA effector molecule)	-0.39	-0.34	-0.31	-0.5
HSDL1 (hydroxysteroid dehydrogenase like 1)	-0.79	-0.83	-0.67	-0.88
GCSH (glycine cleavage system protein H)	0.96	1.17	0.97	0.74
AKT2 (AKT serine/threonine kinase 2)	-1.12	-0.92	-1.23	-1.21
SGK2 (serum/glucocorticoid regulated kinase 2)	-1.88	-1.7	-1.94	-2.02
KRTAP12-2 (keratin associated protein 12-2)	-0.51	-0.22	-0.87	-0.45
LOC339351 (retired record)	0.5	0.5	0.05	0.96
METTL13 (methyltransferase 13, eEF1A N-terminus and K55)	1.2	1.08	1.34	1.18
IGF2BP1 (insulin like growth factor 2 mRNA binding protein 1)	-1.5	-1.16	-1.85	-1.47
NCAN (neurocan)	0.16	-0.11	0.24	0.34
LAMTOR3 (late endosomal/lysosomal adaptor, MAPK and MTOR activator 3)	-0.7	-0.83	-0.45	-0.84
LOC388509 (retired record)	0.46	0.86	0.2	0.32
PDZK1IP1 (PDZK1 interacting protein 1)	-0.53	-0.78	-0.49	-0.31
EAPP (E2F associated phosphoprotein)	0.53	0.2	0.52	0.87
ZFP37 (ZFP37 zinc finger protein)	0.63	0.47	0.87	0.56
NCCRP1 (NCCRP1, F-box associated domain containing)	-0.66	-0.67	-0.42	-0.89
SPPL2A (signal peptide peptidase like 2A)	2.04 (active)	1.96	2.16	2
FOLR1 (folate receptor alpha)	0.11	-0.05	0.3	0.08
KIFC2 (kinesin family member C2)	0.03	0.1	-0.03	0.02
TMBIM4 (transmembrane BAX inhibitor motif containing 4)	0.87	0.91	0.71	0.98
MELTF (melanotransferrin)	-0.48	-0.86	-0.38	-0.19

Targets above whose gene name begins with A or a:
target gene	mean z-score	z-score, replicate A	z-score, replicate B	z-score, replicate C
ADAM2 (ADAM metallopeptidase domain 2)	-0.67	-0.5	-0.78	-0.73
ADAMTS19 (ADAM metallopeptidase with thrombospondin type 1 motif 19)	-0.55	-0.4	-0.48	-0.77
AKT2 (AKT serine/threonine kinase 2)	-1.12	-0.92	-1.23	-1.21

Continued.
target gene	mean z-score	z-score, replicate A	z-score, replicate B	z-score, replicate C
OSBP2 (oxysterol binding protein 2)	-0.87	-0.97	-0.83	-0.8
JMJD4 (jumonji domain containing 4)	-2.05	-1.97	-2.21	-1.96
BMP1 (bone morphogenetic protein 1)	0.68	0.85	0.92	0.26
SLC16A5	-0.61	-0.39	-0.61	-0.82
RHBDD3 (rhomboid domain containing 3)	-0.01	-0.02	-0.2	0.18
DDX28 (DEAD-box helicase 28)	-0.59	-0.92	-0.42	-0.43
GLUL (glutamate-ammonia ligase)	-0.04	-0.07	-0.06	0.01
REN (renin)	-0.08	0.07	-0.05	-0.26
SLC17A8	-0.2	-0.36	0.02	-0.25
BLOC1S3 (biogenesis of lysosomal organelles complex 1 subunit 3)	0.83	0.28	1.22	0.99
CACNA1S (calcium voltage-gated channel subunit alpha1 S)	-1.08	-1.17	-0.96	-1.1
ZNF37A (zinc finger protein 37A)	1.48	1.62	1.55	1.25
ZNF268 (zinc finger protein 268)	-0.41	-0.17	-0.51	-0.54
RIBC2 (RIB43A domain with coiled-coils 2)	-0.55	-0.42	-0.6	-0.64
SIX1 (SIX homeobox 1)	-1.06	-0.85	-1.27	-1.05
TOMM40L (translocase of outer mitochondrial membrane 40 like)	1.72	1.73	1.52	1.91
HERC2 (HECT and RLD domain containing E3 ubiquitin protein ligase 2)	-0.25	-0.53	-0.39	0.17
SMPD4 (sphingomyelin phosphodiesterase 4)	-0.55	-0.57	-0.51	-0.58
DCTN4 (dynactin subunit 4)	-0.11	0.03	-0.37	0.02
ENOX1 (ecto-NOX disulfide-thiol exchanger 1)	1.02	0.7	0.71	1.64
ZNF679 (zinc finger protein 679)	-1.39	-1.29	-1.07	-1.79
CENPF (centromere protein F)	-0.76	-0.83	-0.5	-0.95
ZNF697 (zinc finger protein 697)	1.21	1.57	1.23	0.83
SHISA5 (shisa family member 5)	-0.53	-0.14	-0.68	-0.77
PLPP7 (phospholipid phosphatase 7 (inactive))	-1.01	-1.02	-0.83	-1.19
TMEM44 (transmembrane protein 44)	-0.97	-1.33	-0.78	-0.79
ZFPM1 (zinc finger protein, FOG family member 1)	1.41	1.42	1.55	1.26
LINC00926 (long independently transcribed non-coding RNA 926)	0.25	0.12	0.26	0.37
RTP3 (receptor transporter protein 3)	0.7	0.62	0.47	1.01
